Assay results: publication PMC5025708, “Structural Basis of Host Autophagy-related Protein 8 (ATG8) Binding by the Irish Potato Famine Pathogen Effector Protein PexRD54*^([image sbox.jpg])^♦” (The Journal of Biological Chemistry, 2016)

Experiments:
[1] = target: T1, ATG8CL-GST-His fusion protein (potato, UniProt M1C146 1-119); assay: peptide or protein array
T1 construct: source: E. coli, purified (Ni-NTA, gel filtration)
T1 sequence: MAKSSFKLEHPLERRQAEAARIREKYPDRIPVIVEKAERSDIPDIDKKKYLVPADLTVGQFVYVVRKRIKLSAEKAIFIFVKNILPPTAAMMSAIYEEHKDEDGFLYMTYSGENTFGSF

[2] = target: PexRD54 effector domain (residues Val-92 to Val-381), wild type (Phytophthora infestans, UniProt D0NBE6 92-381); assay: SPR
[3] = target: T2, ATG8CL* (Ser-5 to Asn-114) (potato, UniProt M1C146 5-114); assay: crystal structure
T2 sequence: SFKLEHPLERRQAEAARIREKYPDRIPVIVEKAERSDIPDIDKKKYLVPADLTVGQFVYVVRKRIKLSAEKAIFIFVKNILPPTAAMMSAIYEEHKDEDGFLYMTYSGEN

B1: 10-mer peptide of PexRD54 (Lys-372–Val-381), wild-type sequence (peptide)
peptide: KPLDFDWEIV
modifications: anchored to the membrane at the N terminus, free C terminus
B1: binds [1].

B2: ATG8CL (Met-1 to Phe-119) with a non-cleavable C-terminal His6 tag (natural protein)
chain: T1 sequence
notes: also called His-tagged ATG8CL; pOPINE-ATG8CL; not shown: His6, C-terminal, kept
B2 gave a Kd [2] of 388 nM.

B3: PexRD54 C-terminal pentapeptide (Asp-377–Trp-378–Glu-379–Ile-380–Val-381) (peptide)
peptide: DWEIV
B3: binds [3].
